# In patent EP0855181A2 (priority 1997, dated 1998):
# Test system: superantigen primed neutrophils
# Test: Leukotriene and 12-HETE release of superantigen primed neutrophils
# Conditions: glycine, then fMLP
# [1] = SEB-T-cell receptor mutant priming
smiles,measurement,setting,value
NCC(=O)O [glycine],leukotriene and 12-HETE pattern compared with SEA,SEA-T-cell receptor mutant priming,marginally shifts this image
same,20-carboxy-LTB4,SEB-MHC-mutant priming,drop
same,12-HETE,[1],marginal increase
same,20-carboxy-LTB4,[1],significant drop
same,increase in 12-HETE,TSST-1-mutant P135 priming,marginal
same,increase in cysteinyl leukotrienes,TSST-1-mutant P135 priming,marginal
